From patent publication EP1261587B1, “STILBENE DERIVATIVES, THEIR PREPARATION AND THEIR USE AS ANTIVIRAL AGENTS” (priority 1999, dated 2001) come the findings set out here.

Sequences of proteins named here, by UniProt entry; tags and fusion partners are left off. A change or cut given only in a name is not applied to a line headed by its entry.
UniProt P04608: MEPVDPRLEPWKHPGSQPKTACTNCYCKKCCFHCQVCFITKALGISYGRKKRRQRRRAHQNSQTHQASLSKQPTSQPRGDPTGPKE

This test addresses T1, Tat-TAR complex (recombinant Tat, synthetic TAR duplex) (Human immunodeficiency virus type 1 group M subtype B, UniProt P04608).
T1 construct: purchased Medical Research Council (MRC), Cambridge, U.K
Description: competition Tat-TAR gel-shift assay. Format: binding, HIV-1. Particulars: concentration giving 50 % decrease in intensity of the retarded band (Tat-TAR complex); 20 nM recombinant Tat; read-out: CD50 (the source's name). The text has this: The in vitro inhibition of the interaction between Tat and TAR can be shown by a competition Tat-TAR gel-shift assay. Through binding of the protein (recombinant Tat, Medical Research Council (MRC), Cambridge, U.K. - for the sequence of recombinant Tat see Churcher et al., J. Mol. Biol. 230, 90-110 (1993)) to the RNA (synthetic TAR duplex, Genset, Paris, France; for the sequence see Hamy et al., J. Mol. Biol. 230, 111-123 (1993)), the overall size and the charge/weight ratio of the formed duplex are changed, so that electrophoretic migration through a native polyacrylamide gel is affected. By radioactive labelling of the RNA and subsequent autoradiography, free RNA and complexes can be discriminated based on their relative positions in the gel (Hamy et al., J. Mol. Biol. 230, 111-123 (1993)). If the binding reaction with a test substance is able to prevent the protein binding to the radiolabelled RNA, this competition for binding can be visualized on the autoradiography as a decreased intensity of the retarded band. In more detail, compounds of the formula I are tested as follows: […]

With “N,N'-Bis(trans-4-{2-[4-(3-methyl-5-oxo-4-(o-carboxyphenylazo)-4,5-dihydro-1.H.-pyrazol-1-yl)-2-sulfo-phenyl]-vinyl}-2-sulfophenyl)-urea copper complex [Example 6]”, the IC50 was 200 nM.
